Source: PubChem BioAssay AID720580 (National Center for Advancing Translational Sciences (NCATS), 2013)
Only a part is listed here, and it is no random draw. Records with an inconclusive call do not appear. Activity calls are given as the source filed them. The call rests on the fitted dose curve; tested in A549 cells.

Assay: qHTS for Stage-Specific Inhibitors of Vaccinia Orthopoxvirus: Venus Reporter Primary qHTS; further: nearly all actives have a fitted effect of over 30% in size
Details: Vaccinia virus Venus reporter expression, fluorescence; series mostly up to 36.5 µM; activity change, negative = inhibition: at the top concentration
On the % scale 0 is the no-effect control and ±100 the full control effect.

**Q.** Which “activity change, negative = inhibition” value does the source give for `CCOC(=O)c1ccc(NP(C)(=O)Oc2cc(C)cc(C)c2)cc1` (centres undefined) here?
**A.** inactive: -27.3%

**Q.** Which “activity change, negative = inhibition” value does the source give for `Cc1cc(C)cc(OP(C)(=O)Nc2ccc(C)cc2C)c1` (centres undefined) here?
**A.** inactive: -6.39%

**Q.** For `Cc1cccc(OCC(=O)OC2CN3CCC2CC3)c1` (centres undefined), which “activity change, negative = inhibition” value is on record?
**A.** inactive: -29.9%

**Q.** With `COc1ccccc1OP(C)(=O)Nc1cccc(Br)c1` (centres undefined) as the compound, how does the “activity change, negative = inhibition” value read?
**A.** inactive: -6.36%

**Q.** With `CS(=O)(=O)c1ccc(Cl)c(NC(=O)COC(=O)C(O)(c2ccccc2)c2ccccc2)c1` as the compound, how does the “activity change, negative = inhibition” value read?
**A.** inactive: -9.16%

**Q.** For `COc1cc(C(=O)NCC2(N3CCOCC3)CCCCC2)cc(Cl)c1OC(C)C`, which “activity change, negative = inhibition” value is on record?
**A.** inactive: -18.3%

**Q.** Which “activity change, negative = inhibition” value does the source give for `O=[As](O)(O)c1cccnc1` here?
**A.** inactive: 3.83%

**Q.** Which “activity change, negative = inhibition” value does the source give for `O=C(OC1CN2CCC1CC2)c1ccc(Cl)cc1` (centres undefined) here?
**A.** inactive: -6.94%

**Q.** With `CCOP(=O)(Nc1cccc2ccccc12)OCC` as the compound, how does the “activity change, negative = inhibition” value read?
**A.** inactive: -6.12%

**Q.** For `CCCOP(=S)(Nc1nc(N)cc(=O)[nH]1)OCCC`, which “activity change, negative = inhibition” value is on record?
**A.** inactive: -3.09%

**Q.** With `Cc1ccc(C)c(NP(C)(=O)Oc2ccccc2)c1` (centres undefined) as the compound, how does the “activity change, negative = inhibition” value read?
**A.** inactive: -17.7%

**Q.** Which “activity change, negative = inhibition” value does the source give for `Nc1cccc2c([As](=O)(O)O)cccc12` here?
**A.** inactive: 0.736%

**Q.** For `CP(=O)(Nc1cccc(Br)c1)Oc1ccccc1` (centres undefined), which “activity change, negative = inhibition” value is on record?
**A.** inactive: -6.33%

**Q.** With `Cc1cc(C)cc(OP(C)(=O)Nc2ccccn2)c1` (centres undefined) as the compound, how does the “activity change, negative = inhibition” value read?
**A.** inactive: -13.2%

**Q.** For `Nc1ccccc1[As](=O)(O)c1ccccc1`, which “activity change, negative = inhibition” value is on record?
**A.** inactive: -4.82%

**Q.** With `O=C(O)COc1ccc([As](=O)(O)O)cc1[N+](=O)[O-]` as the compound, how does the “activity change, negative = inhibition” value read?
**A.** inactive: -14.7%

**Q.** Which “activity change, negative = inhibition” value does the source give for `CS(=O)(=O)c1cc([N+](=O)[O-])c2no[n+]([O-])c2c1` here?
**A.** inactive: -4.75%

**Q.** With `O=P(Nc1nccs1)(c1ccccc1)c1nc2ccccc2s1` (centres undefined) as the compound, how does the “activity change, negative = inhibition” value read?
**A.** inactive: -13.4%

**Q.** For `CCOP1(=S)c2c(C)nn(CCC#N)c2N=C(c2ccccc2F)N1C` (centres undefined), which “activity change, negative = inhibition” value is on record?
**A.** inactive: -11.9%

**Q.** With `CN(C(=O)Cc1ccc(Cl)c(Cl)c1)[C@H]1CC[C@@]2(CCCO2)C[C@@H]1N1CCCC1` as the compound, how does the “activity change, negative = inhibition” value read?
**A.** inactive: -17.6%

**Q.** For `CC1=NCCc2c1[nH]c1ccccc21.O=[N+]([O-])c1cc([N+](=O)[O-])c(O)c([N+](=O)[O-])c1`, which “activity change, negative = inhibition” value is on record?
**A.** inactive: -2.61%

**Q.** With `CCOP1(=S)c2c(C)nn(CCC#N)c2N=C(c2ccc(F)cc2)N1C` (centres undefined) as the compound, how does the “activity change, negative = inhibition” value read?
**A.** inactive: -0.939%

**Q.** Which “activity change, negative = inhibition” value does the source give for `CN(C(=O)Cc1ccccc1)[C@@H]1CC[C@]2(CCCO2)C[C@H]1N1CCCC1` here?
**A.** inactive: -18.5%

**Q.** With `N#CCCN(C(=O)COC(=O)C(O)(c1ccccc1)c1ccccc1)c1ccc(F)cc1` as the compound, how does the “activity change, negative = inhibition” value read?
**A.** inactive: 7.21%

**Q.** With `NC(=O)Nc1ccc([As](=O)(O)O)cc1` as the compound, how does the “activity change, negative = inhibition” value read?
**A.** inactive: -0.0369%

**Q.** With `CCCC1OP(=O)(Nc2ccccc2)OCC1CC` (centres undefined) as the compound, how does the “activity change, negative = inhibition” value read?
**A.** inactive: -3.34%

**Q.** For `O=C(/C=C/c1ccccc1)OC1CN2CCC1CC2` (centres undefined), which “activity change, negative = inhibition” value is on record?
**A.** inactive: -16.5%

**Q.** Which “activity change, negative = inhibition” value does the source give for `O=[N+]([O-])c1cc([N+](=O)[O-])c(Nc2nnnn2CCO)c([N+](=O)[O-])c1` here?
**A.** inactive: -12.8%

**Q.** For `CN(C)C1(CNC(=O)c2ccc(S(C)(=O)=O)cc2)CCCCC1`, which “activity change, negative = inhibition” value is on record?
**A.** inactive: -7.98%

**Q.** For `CC1=C2N=C(C=C3N=C(C(C)=C4[N-][C@@](C)([C@@H]5N=C1[C@](C)(CCC(=O)NC[C@@H](C)OP(=O)([O-])O[C@H]1[C@@H](O)[C@@H](n6cnc7cc(C)c(C)cc76)O[C@@H]1CO)[C@H]5CC(N)=O)[C@@](C)(CC(N)=O)[C@@H]4CCC(N)=O)[C@@](C)(CC(N)=O)[C@@H]3CCC(N)=O)C(C)(C)[C@@H]2CCC(N)=O.[C-]#N.[Co+3]`, which “activity change, negative = inhibition” value is on record?
**A.** inactive: -14.8%

**Q.** With `COc1cc(C2NCCC3(OCCO3)C2(C)C)cc(OC)c1OC.O=[N+]([O-])c1cc([N+](=O)[O-])c(O)c([N+](=O)[O-])c1` (centres undefined) as the compound, how does the “activity change, negative = inhibition” value read?
**A.** inactive: -13.7%

**Q.** Which “activity change, negative = inhibition” value does the source give for `COc1cc([N+](=O)[O-])ccc1[N+](=O)[O-]` here?
**A.** inactive: 1.24%

**Q.** Which “activity change, negative = inhibition” value does the source give for `Cc1ccc(C(=O)OC2CN3CCC2CC3)cc1` (centres undefined) here?
**A.** inactive: -16.2%

**Q.** For `Cc1nn(-c2ccccc2)c2c1P(=O)(N1CCOCC1)N(C)C(c1ccccc1)=N2` (centres undefined), which “activity change, negative = inhibition” value is on record?
**A.** inactive: -4.05%

**Q.** Which “activity change, negative = inhibition” value does the source give for `Cc1ccc(OCC(=O)OC2CN3CCC2CC3)cc1` (centres undefined) here?
**A.** inactive: -0.96%

**Q.** Which “activity change, negative = inhibition” value does the source give for `O=[As](O)(c1cccs1)c1cccs1` here?
**A.** inactive: -7.01%

**Q.** With `CCCOc1ccc(NP(C)(=O)Oc2ccc(Cl)cc2)cc1` (centres undefined) as the compound, how does the “activity change, negative = inhibition” value read?
**A.** inactive: -9.36%

**Q.** With `O=P1(Nc2ncccn2)COc2ccccc2OC1` as the compound, how does the “activity change, negative = inhibition” value read?
**A.** inactive: -6.21%

**Q.** With `CN(Cc1cccnc1)C(=O)COc1ccc(Cl)c(Cl)c1.O=[N+]([O-])c1cc([N+](=O)[O-])c(O)c([N+](=O)[O-])c1` as the compound, how does the “activity change, negative = inhibition” value read?
**A.** inactive: 1.6%

**Q.** With `O=P1(N(CCCl)CCCl)NCCC(C(F)(F)F)O1` (centres undefined) as the compound, how does the “activity change, negative = inhibition” value read?
**A.** inactive: -10.4%

**Q.** Which “activity change, negative = inhibition” value does the source give for `CN(CCCl)Cc1cc(Cl)c(NC2=NCCN2)c(Cl)c1` here?
**A.** inactive: -9.2%

**Q.** For `CCOP(=O)(Nc1ccc(C)cn1)OCC`, which “activity change, negative = inhibition” value is on record?
**A.** inactive: -12.3%

**Q.** With `CCOP(=O)(NC(=NC(C)c1ccccc1)NC(C)c1ccccc1)OCC` (centres undefined) as the compound, how does the “activity change, negative = inhibition” value read?
**A.** inactive: -23.8%

**Q.** With `Nc1ccc(CCCCOc2ccccc2)cc1.O=[N+]([O-])c1cc([N+](=O)[O-])c(O)c([N+](=O)[O-])c1` as the compound, how does the “activity change, negative = inhibition” value read?
**A.** inactive: -22.2%

**Q.** Which “activity change, negative = inhibition” value does the source give for `O=[N+]([O-])c1cc([N+](=O)[O-])c(-n2nnc3ccccc32)c([N+](=O)[O-])c1` here?
**A.** inactive: -14.3%

**Q.** For `O=C(O)C(O)c1ccc(N(CCCl)CCCl)cc1.c1ccncc1` (centres undefined), which “activity change, negative = inhibition” value is on record?
**A.** inactive: -11.1%

**Q.** With `O=P1(Nc2ccccn2)COc2ccccc2OC1` as the compound, how does the “activity change, negative = inhibition” value read?
**A.** inactive: -15.1%

**Q.** With `CC1(CBr)Cn2c(nc3ccccc3c2=O)S1` (centres undefined) as the compound, how does the “activity change, negative = inhibition” value read?
**A.** inactive: -14.1%

**Q.** Which “activity change, negative = inhibition” value does the source give for `Cc1nc2ccc3ccccc3c2s1.O=[N+]([O-])c1cc([N+](=O)[O-])c(O)c([N+](=O)[O-])c1` here?
**A.** inactive: 0%

**Q.** With `CC(C)/C=N\N=C(\N)N[N+](=O)[O-]` as the compound, how does the “activity change, negative = inhibition” value read?
**A.** inactive: -13%

**Q.** Which activity change, negative = inhibition does the source give for `CN(C(=O)Cc1ccc(Cl)c(Cl)c1)[C@@H]1CCCC[C@H]1N1CCCC1` here?
**A.** inactive

**Q.** For `Cc1ccc(S(=O)(=O)N(CCCN)CCCc2c(C)nc(N)[nH]c2=O)cc1.O=[N+]([O-])c1cc([N+](=O)[O-])c(O)c([N+](=O)[O-])c1`, which “activity change, negative = inhibition” value is on record?
**A.** inactive: -15.8%

**Q.** With `COc1ccccc1CNC(=O)COC(=O)C(O)(c1ccccc1)c1ccccc1` as the compound, how does the “activity change, negative = inhibition” value read?
**A.** inactive: -12.2%

**Q.** Which “activity change, negative = inhibition” value does the source give for `Cc1cc(C)cc(OP(C)(=O)Nc2ccc(SC(F)(F)F)cc2)c1` (centres undefined) here?
**A.** inactive: -20.8%

**Q.** For `O=C(COc1ccccc1)OC1CN2CCC1CC2` (centres undefined), which “activity change, negative = inhibition” value is on record?
**A.** inactive: -10.3%

**Q.** Which “activity change, negative = inhibition” value does the source give for `CP(=O)(NC(=O)Nc1ccccc1)Oc1ccccc1` (centres undefined) here?
**A.** inactive: -11.4%

**Q.** With `CP(=O)(Oc1ccccc1)OC(c1ccccc1)C(F)(F)F` (centres undefined) as the compound, how does the “activity change, negative = inhibition” value read?
**A.** inactive: -10.8%

**Q.** Which “activity change, negative = inhibition” value does the source give for `COC(=O)C1(C)COP(=O)(N2CCCC2)OC1` (centres undefined) here?
**A.** inactive: 9.51%

**Q.** For `Cc1cccc(C)c1OP(C)(=O)Nc1ccc(SC(F)(F)F)cc1` (centres undefined), which “activity change, negative = inhibition” value is on record?
**A.** inactive: -13%

**Q.** Which “activity change, negative = inhibition” value does the source give for `COP1(=S)c2c(C)nn(CCC#N)c2N=C(c2ccc(F)cc2)N1C` (centres undefined) here?
**A.** inactive: -22.8%

**Q.** With `CP(=O)(Nc1ccccn1)Oc1ccc(Cl)cc1` (centres undefined) as the compound, how does the “activity change, negative = inhibition” value read?
**A.** inactive: -4.83%

**Q.** Which activity change, negative = inhibition does the source give for `CCOC(=O)c1ccc(NC(=O)C(C)(CCl)SC)cc1` (centres undefined) here?
**A.** inactive: -20.1% [at 7.34 µM]

**Q.** Which “activity change, negative = inhibition” value does the source give for `CCOC(=O)c1ccc(NP(C)(=O)Oc2ccc(OC)cc2)cc1` (centres undefined) here?
**A.** inactive: -12.3%

**Q.** Which activity change, negative = inhibition does the source give for `O=[N+]([O-])c1cc([N+](=O)[O-])c(O)c([N+](=O)[O-])c1.c1ccc(Oc2ccncc2)cc1` here?
**A.** inactive: -5.52% [at 7.34 µM]
